From PMC10653801

Chains of the proteins cited; added tags and fusions are not shown. Lines headed by an entry give the natural chain unless they say otherwise; changes in a name come on top.
UniProt Q5ZSZ8: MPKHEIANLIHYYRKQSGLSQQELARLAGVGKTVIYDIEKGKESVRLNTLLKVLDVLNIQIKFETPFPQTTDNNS

Biological target: HipB(Lp) (Legionella pneumophila Lp01JK) (UniProt Q5ZSZ8)
Assay: EMSA
Settings: HipB 2.5 nM, DNA 10 nM; recombinant protein; protein details: His6-SBP tag cleaved

Sequence	binding result
AAGGAAATCAATCAAATTTACCGCCATAACAGTAATTTATGGTGAATTAA (double strand) [upstream 80-130 (O2)]	binds
TATCATTTTTACTGCTATAACAGTAATATATAATTAATTTTTGGTGTTCC (double strand) [upstream 0-50 (O1)]	binds
TATTCCCCCCTCAAATTTACCGTGATAACAGTAATTTTTAGGAATTTATA (double strand) [upstream 151-200 (O3)]	binds

For at least one entry, the source does not settle the construct or the ends of the probe. At least one verdict rests on a figure or table, not on a statement of the authors.
